Laboratory results as given in patent US20080063643A1, “Peptide Derived From Hepatitis C Virus” (priority 2003, published 2008).

Tested on: antibody reactive to C-35 peptide
Experiment: Double-blind study of the antibody reactive to C-35 peptide in 156 cases (ELISA)
Format: binding, human
Settings: cutoff mean±3 SD, listed as C-35

YLLPRRGPRL [No. 40]
Sensitivity (detection rate) of the antibody reactive to the peptide: 93.3% | Sensitivity (second line of Table 2; HCV specificity in the text): 88.5%
